Measurements from doi:10.1101/2024.10.27.620470 (bioRxiv, 2024).

How the values were obtained:
[1] = biological target: T1, mutant N_(128-138) peptide 2 (KDGIIAAATEG) (SARS-CoV-2); experiment: ITC
T1 peptide: KDGIIAAATEG

[2] = biological target: T2, mutant N_(128-138) peptide 3 (KAGIIAAATEG) (SARS-CoV-2); experiment: ITC
T2 peptide: KAGIIAAATEG

B1: NTF2-like domain of Ras GTPase-activating protein SH3-domain-binding protein 1 (G3BP1_(NTF-2)) (domain or fragment)
chain: MVMEKPSPLLVGREFVRQYYTLLNQAPDMLHRFYGKNSSYVHGGLDSNGKPADAVYGQKEIHRKVMSQNFTNCHTKIRHVDAHATLNDGVVVQVMGLLSNNNQALRRFMQTFVLAPEGSVANKFYVHNDIFRYQDEVFG
B1 was tested, and the “fold reduction against native N_(128-138) peptide 1” value [1] was 16 fold and the “fold reduction against native N_(128-138) peptide 1” value [2] was 60 fold.
